Measurements reported in PubChem BioAssay AID624099 (ICCB-Longwood, 2012)
The deposit covers about 21,000 reagents; this is an unselected part. 497 of them (2.4%) count as active. 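Higher z means weaker E2 silencing; only reporter increases were scored, and knock-downs that hurt cell survival may mask genuine repressor factors.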

Purpose: 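Knock-downs relieving repression by E2 of an HPV18 LCR luciferase reporter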 (primary screen)
Cell system: human C33A cervical carcinoma cells (HPV-negative) stably expressing BPV1 E2 and an HPV18 LCR luciferase reporter
Knock-down reagent: siRNA pool against human genes, 40 nM
Time to read-out: 72 h
Measurement: 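HPV18 LCR reporter light per well, converted to plate-wise z-scores that exclude control wells, and averaged over triplicate plates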
Reading the numbers: mean z-score and z-score: higher = stronger reporter signal, weaker E2 silencing
Rule for the call: 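Mean z ≥ 2 together with z ≥ 2 in two or more of the three replicates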

SSPN
- mean z-score: 0.11
- z-score, replicate A: 0.11
- z-score, replicate B: 0.13
- z-score, replicate C: 0.1
- outcome: inactive

ABCA8
- mean z-score: -0.34
- z-score, replicate A: -0.58
- z-score, replicate B: -0.3
- z-score, replicate C: -0.15
- outcome: inactive

KITLG
- mean z-score: 0.12
- z-score, replicate A: 0.03
- z-score, replicate B: 0.19
- z-score, replicate C: 0.15
- outcome: inactive

C8orf17
- mean z-score: 0.82
- z-score, replicate A: 0.55
- z-score, replicate B: 1.05
- z-score, replicate C: 0.85
- outcome: inactive

TUBGCP3
- mean z-score: -0.25
- z-score, replicate A: -0.36
- z-score, replicate B: -0.14
- z-score, replicate C: -0.23
- outcome: inactive

MMP15
- mean z-score: -1.56
- z-score, replicate A: -1.5
- z-score, replicate B: -1.81
- z-score, replicate C: -1.36
- outcome: inactive

TCEAL7
- mean z-score: -0.03
- z-score, replicate A: 0.05
- z-score, replicate B: -0.2
- z-score, replicate C: 0.05
- outcome: inactive

CEBPD
- mean z-score: -1.06
- z-score, replicate A: -1.39
- z-score, replicate B: -1.14
- z-score, replicate C: -0.65
- outcome: inactive

VPS28
- mean z-score: 0.41
- z-score, replicate A: 0.03
- z-score, replicate B: 0.94
- z-score, replicate C: 0.28
- outcome: inactive

GRPEL1
- mean z-score: -0.3
- z-score, replicate A: -0.23
- z-score, replicate B: -0.33
- z-score, replicate C: -0.36
- outcome: inactive

ABCG8
- mean z-score: 1.15
- z-score, replicate A: 1.04
- z-score, replicate B: 1.23
- z-score, replicate C: 1.19
- outcome: inactive

HYCC1
- mean z-score: -0.02
- z-score, replicate A: 0.05
- z-score, replicate B: -0.04
- z-score, replicate C: -0.06
- outcome: inactive

CAPN13
- mean z-score: -0.92
- z-score, replicate A: -1.05
- z-score, replicate B: -0.62
- z-score, replicate C: -1.09
- outcome: inactive

PPP2R1B
- mean z-score: -0.99
- z-score, replicate A: -1.01
- z-score, replicate B: -0.8
- z-score, replicate C: -1.16
- outcome: inactive

2 entries already listed, arranged by “z-score, replicate B”, low to high.
MMP15
- mean z-score: -1.56
- z-score, replicate A: -1.5
- z-score, replicate B: -1.81
- z-score, replicate C: -1.36
- outcome: inactive

TUBGCP3
- mean z-score: -0.25
- z-score, replicate A: -0.36
- z-score, replicate B: -0.14
- z-score, replicate C: -0.23
- outcome: inactive
